Reference: ChEMBL document CHEMBL1148773 (J Med Chem, 2007)

Assays:
[1] = biological target: Human immunodeficiency virus type 1 protease (Human immunodeficiency virus 1, UniProt Q72874, I84V); assay: Inhibition of HIV1 protease I84V mutant
[2] = biological target: Human immunodeficiency virus type 1 protease (Human immunodeficiency virus 1, UniProt Q72874, V82A); assay: Inhibition of HIV1 protease V82A mutant
[3] = biological target: Human immunodeficiency virus type 1 protease (Human immunodeficiency virus 1, UniProt Q72874, D30N); assay: Inhibition of HIV1 protease D30N mutant
[4] = biological target: Human immunodeficiency virus type 1 protease (Human immunodeficiency virus 1, UniProt Q72874, I50V); assay: Inhibition of HIV1 protease I50V mutant

CC(C)CN(C[C@@H](O)[C@H](Cc1ccccc1)NC(=O)O[C@H]1CO[C@H]2OCC[C@H]21)S(=O)(=O)c1ccc2c(c1)OCO2
Ki [1]: 0.85 nM | Ki [2]: 0.8 nM | Ki [3]: 4.6 nM | Ki [4]: 2.1 nM
